Measured values: PMC7144554, “2-(Arylamino)-6-(trifluoromethyl)nicotinic Acid Derivatives: New HIV-1 RT Dual Inhibitors Active on Viral Replication” (Molecules, 2020)

Target: HIV-1 RT-associated RNase H activity (wt RT) (Human immunodeficiency virus type 1 group M subtype B, UniProt P04585)
Experiment: HIV-1 DNA polymerase-independent RNase H activity, wt RT
Settings: read-out: RNase H IC50

## CCOC(=O)C(=O)CC(=O)/C=C/c1cccn1Cc1ccccc1Cl
  IC50: 8.5 µM
